Results of unrelated studies side by side (data: NIAID ChemDB).

Common to all: whole-cell or culture tests; organism: Rhinovirus

Blank or dashed fields: not listed here.

| compound | method | cells | strain or isolate | measure | result |
|---|---|---|---|---|---|
| Cc1ccc(CCCOc2c(C)cc(-c3noc(C)n3)cc2C)nn1 | cytopathic effect | HeLa | serotypes 2 14 1A 1B 6 21 22 15 25 30 50 67 89 86 41 | EC80 | 0.272 µg/mL |
| O=C(CCCCOc1ccc(C2=NCCO2)cc1)c1ccc(Cl)cc1 | cytopathic effect | HeLa | Serotype 2 | EC50 | >280 µM |
| CC(C)S(=O)(=O)n1c(N)nc2ccc(/C(=N/O)c3ccccc3)cc21 | plaque count | HeLa | 1059 (serotype 14) | EC50 | 0.05 µg/mL |
| CCOC(=O)/C=C/[C@H](CCC(=O)NC)NC(=O)[C@H](Cc1ccccc1)NC(=O)[C@H](CC(C)C)NC(=O)OCc1ccccc1 | - | - | Serotype 14 | EC50 | 1.6 µM |
| CCOc1cnc2ccc(OCCC3CCN(c4ccc(C)nn4)CC3)cc2n1 | cytopathic effect | MRC-5 | Serotype 14 | EC50 | 0.013 µg/mL |
| COCc1ccc(CCCOc2cc(C)c(-c3noc(C)n3)c(C)c2)nn1 | cytopathic effect | HeLa | serotypes 3 4 5 9 16 18 38 66 75 67 | EC50 | 0.15 µg/mL |
| CCc1ccc(Cn2cnc3c(N(C)C)nc(Cl)nc32)cc1 | plaque count | M-HELA | Serotype 18 | EC50 | >4 µM |
| Cc1ccc(C(=O)CCCCOc2ccc(C#N)cc2)cc1 | cytopathic effect | HeLa | Serotype 14 | EC50 | 43.3 µM |
| CC(C)S(=O)(=O)n1c(N)nc2ccc(C(C(N)=O)c3ccccc3F)cc21 | plaque count | HeLa | 1059 (serotype 14) | EC50 | 0.03 µg/mL |
| O=C1c2ccccc2OCC1Cc1ccc(Cl)cc1 | plaque count | HeLa | TYPE 1B | EC50 | 1.23 µM |
| CC(C)S(=O)(=O)n1c(N)nc2ccc(C(C(N)=O)c3ccc(F)cc3F)cc21 | plaque count | HeLa | 1059 (serotype 14) | EC50 | 0.05 µg/mL |
| CCOC(=O)/C=C/[C@H](C[C@@H]1CCNC1=O)NC(=O)[C@H](Cc1ccc(F)cc1)NC(=O)[C@@H](NC(=O)c1cc(C)on1)C(C)C | - | - | Serotype 14 | EC50 | <0.04 µM |
| CN(C)c1ncnc2c1ncn2Cc1cccc(O)c1 | plaque count | M-HELA | Serotype 1B | EC50 | >50 µM |
| O=C(CCCCOc1ccc(C2=NCCO2)cc1)c1ccccc1 | cytopathic effect | HeLa | Serotype 14 | EC50 | 41.1 µM |
| CCO/N=C/c1ccc(OCCC2CCN(c3ccc(Cl)nn3)CC2)cc1 | neutral red | KB | 121564 (ICAM-1 receptor group 86) | EC50 | 0.021 µM |
| CCOC(=O)c1ccc(OCCCCC(=O)c2ccc(C)c(C)c2)cc1 | cytopathic effect | HeLa | Serotype 14 | EC50 | 10 µM |
| CN(C)c1nc(Cl)nc2c1ncn2Cc1ccc(Cl)cc1 | plaque count | M-HELA | Serotype 14 | EC50 | >5 µM |
| CCOc1nc2ccc(OCCC3CCN(c4cc(C)cnn4)CC3)cc2o1 | cytopathic effect | MRC-5 | Serotype 2 | EC50 | 0.167 µg/mL |
| CNC(=O)C(c1ccc2nc(N)n(S(=O)(=O)C(C)C)c2c1)c1ccc(F)c(F)c1F | plaque count | HeLa | 1059 (serotype 14) | EC50 | 0.01 µg/mL |
| COc1ccc(CC2COc3cc(OC)cc(OC)c3C2=O)cc1 | plaque count | HeLa | TYPE 1B | EC50 | >6.25 µM |
| CCOc1nc2ccc(OCCC3CCN(c4cc(C)c(C)nn4)CC3)cc2o1 | cytopathic effect | MRC-5 | Serotype 14 | EC50 | 0.04 µg/mL |
| O=c1c(Cc2ccc(O)cc2)coc2ccccc12 | plaque count | HeLa | TYPE 14 | EC50 | 16.2 µM |
| CCOC(=O)c1ccc(OCCCCC(=O)c2ccc(C)c(Cl)c2)cc1 | - | - | serotype 1A 1B 2 6 14 15 21 22 25 29 30 41 42 45 59 63 67 70 72 86 89 | MIC80 | >267 µM |
| COc1ccc(Cc2coc3ccccc3c2=O)cc1 | plaque count | HeLa | TYPE 1B | EC50 | 7.86 µM |
| CC(=O)N[C@H]1C[C@@H](n2cnc3c(N)ncnc32)[C@H](O)[C@@H]1O | - | HFF | TYPE 2 | EC50 | >100 µg/mL |
| N#Cc1ccc(OCCCCC(=O)c2ccc(F)cc2)cc1 | cytopathic effect | HeLa | Serotype 2 | EC50 | >35 µM |
| Cc1cc(OCCCc2ccc(Br)nn2)cc(C)c1-c1noc(C(F)F)n1 | cytopathic effect | HeLa | serotypes 3 4 5 9 16 18 38 66 75 67 | EC50 | 0.02 µg/mL |
| COc1ccc(C(C(N)=O)c2ccc3nc(N)n(S(=O)(=O)C(C)C)c3c2)cc1F | plaque count | HeLa | 1059 (serotype 14) | EC50 | 0.05 µg/mL |
| CCOc1cnnc2ccc(OCCC3CCN(c4ccc(C)nn4)CC3)cc12 | cytopathic effect | MRC-5 | Serotype 2 | EC50 | 0.246 µg/mL |
| Cc1cc(CCCOc2c(C)cc(-c3noc(C(F)(F)F)n3)cc2C)on1 | cytopathic effect / visual reading | OHIO HELA-I | Isolate 39 | EC50 | >10 µg/mL |
| Cc1cc(CCCCCCCOc2ccc(C3=NCCO3)cc2)on1 | - | - | TYPE 14 | MIC | 0.41 µM |
| Cc1cc(CCCOc2c(C)cc(-n3nnc(C)n3)cc2C)on1 | plaque count | - | Serotype 3 | EC50 | 0.158 µg/mL |
| Cc1cc(CCCCCOc2c(Cl)cc(C3=NCCO3)cc2Cl)on1 | cytopathic effect | HeLa | Serotype 14 | EC50 | 1.2 µM |
| O=C1/C(=C/c2ccc(Cl)cc2)COc2ccccc21 | plaque count | HeLa | TYPE 1B | EC50 | 3.4 µM |
| COc1ccc(OCCCCCCn2ccnc2)c(Cl)c1 | plaque count | HeLa | TYPE 1A | EC50 | 29.1 µM |
| N#Cc1ccc(OCCCCC(=O)c2ccccc2)cc1 | cytopathic effect | HeLa | Serotype 2 | EC50 | >267 µM |
| O=c1c(Cc2ccc(Cl)cc2)coc2cc(Cl)cc(Cl)c12 | plaque count | HeLa | TYPE 1B | EC50 | 3.9 µM |
| Cc1cc(CCCOc2c(Cl)cc(C3=NCCO3)cc2Cl)on1 | plaque count | - | Serotype 14 | EC50 | >8.7 µg/mL |
| CCc1ccc(CCCOc2ccc(-c3noc(C(F)(F)F)n3)c(C)c2)nn1 | cytopathic effect | HeLa | serotypes 3 4 5 9 16 18 38 66 75 67 | EC50 | 0.08 µg/mL |
| CS(=O)(=O)c1cnc2c(c1)CCC(c1ccc(Cl)c(Cl)c1)O2 | cytopathic effect | HeLa | Serotype 2 (drug-resistant) | EC50 | >1 µg/mL |
| CCOC(=O)c1ccc(OCCCCC(=O)c2ccc(C)cc2)cc1 | cytopathic effect | HeLa | Serotype 2 | EC50 | 5 µM |

Again, the opening 4 rows:

compound,method,cells,strain or isolate,measure,result
Cc1ccc(CCCOc2c(C)cc(-c3noc(C)n3)cc2C)nn1,cytopathic effect,HeLa,serotypes 2 14 1A 1B 6 21 22 15 25 30 50 67 89 86 41,EC80,0.272 µg/mL
O=C(CCCCOc1ccc(C2=NCCO2)cc1)c1ccc(Cl)cc1,cytopathic effect,HeLa,Serotype 2,EC50,>280 µM
CC(C)S(=O)(=O)n1c(N)nc2ccc(/C(=N/O)c3ccccc3)cc21,plaque count,HeLa,1059 (serotype 14),EC50,0.05 µg/mL
CCOC(=O)/C=C/[C@H](CCC(=O)NC)NC(=O)[C@H](Cc1ccccc1)NC(=O)[C@H](CC(C)C)NC(=O)OCc1ccccc1,-,-,Serotype 14,EC50,1.6 µM

A number after MIC or MFC names an inhibition level or a share of isolates. ECn is the concentration giving n% inhibition of infection, replication or growth. Neighbouring rows are from separate reports.